Tested on: S. aureus strain HG003

## CCCCCCCc1cc(O)c2ccccc2[n+]1[O-] [HQNO, 2-heptyl-4-hydroxyquinoline N-oxide]
  induction of tolerance to oxacillin, tobramycin and vancomycin: most robust tolerance
